From paper PMC5404824, “Engineering Nucleotide Specificity of Succinyl-CoA Synthetase in Blastocystis: The Emerging Role of Gatekeeper Residues” (Biochemistry, 2016)

System: Nc1ncnc2c1ncn2[C@@H]1O[C@H](COP(=O)(O)OP(=O)(O)OP(=O)(O)O)[C@@H](O)[C@H]1O
Assay: purified protein
Details: 129 μM CoA, 10 mM succinate, 50 mM KCl, 10 mM MgCl2, 50 mM Tris-HCl pH 7.4, 30 nM enzyme
[1] = Km above highest substrate concentration used (Figure 5 legend)

## Blastocystis SCS (succinyl-CoA synthetase, SCSα + SCSβ) (Blastocystis sp. ATCC 50177/Nand II; K128D/K60E)
  Km: 230 ± 34 µM
  kcat: 0.0176 s⁻¹
  kcat/Km: 76 M⁻¹ s⁻¹

## Blastocystis SCS (succinyl-CoA synthetase, SCSα + SCSβ) (Blastocystis sp. ATCC 50177/Nand II; L241F/V127L)
[1]
  Km: 265 ± 50 µM
  kcat: 0.0177 s⁻¹
  kcat/Km: 66 M⁻¹ s⁻¹
